Measurements taken from published antibiotic growth screens (doi:10.1038/s41589-023-01349-8).
Some of the results follow.

The compounds below were run on A. baumannii ATCC 17978 (assay: relative growth (fraction of control); higher = less inhibition). Conditions: 50 µM.
`CC1OC(O[C@H]2/C=C/C=C/C=C/C=C/C=C/C=C/C=C/[C@H](C)[C@@H](O)[C@@H](C)[C@H](C)OC(=O)CC(O)CC(O)CCC(O)C(O)CC(O)C[C@]3(O)C[C@H](O)C(C(=O)O)C(C2)O3)C(O)[C@H](N)C1O` (some centres not stated) was tested, and the relative growth was 0.986. Work on `COC(=O)CCc1ccc(OC)cc1O` yielded a relative growth of 1.03.
